Experimental data from PubChem BioAssay AID1448 (The Scripps Research Institute Molecular Screening Center, 2008).
The list shows a part of the results, in another mix than the full data. Active and inactive are the calls of the source.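 Rule for the calls: active = activation above its plate's cutoff, the mean activation of the plate's test wells plus 3 SD (cut at about 12% in these data); inactive = the rest.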

By UniProt entry, the sequences of proteins in these tests, tags left out.
UniProt Q8TDD5, whole entry: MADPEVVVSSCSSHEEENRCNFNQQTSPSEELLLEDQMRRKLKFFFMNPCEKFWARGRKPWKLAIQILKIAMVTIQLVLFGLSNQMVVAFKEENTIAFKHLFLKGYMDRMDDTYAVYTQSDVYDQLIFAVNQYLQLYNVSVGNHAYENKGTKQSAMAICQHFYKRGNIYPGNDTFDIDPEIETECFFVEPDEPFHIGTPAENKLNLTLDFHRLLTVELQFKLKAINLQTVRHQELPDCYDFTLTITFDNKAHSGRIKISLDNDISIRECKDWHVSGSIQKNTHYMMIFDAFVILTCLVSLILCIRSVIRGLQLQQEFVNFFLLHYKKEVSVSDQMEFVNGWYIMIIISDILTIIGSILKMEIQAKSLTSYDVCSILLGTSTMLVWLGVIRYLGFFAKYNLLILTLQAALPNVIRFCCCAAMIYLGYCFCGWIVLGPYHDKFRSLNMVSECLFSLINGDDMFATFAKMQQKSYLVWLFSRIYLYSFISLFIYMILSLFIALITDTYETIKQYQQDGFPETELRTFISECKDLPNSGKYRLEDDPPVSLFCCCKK

Each compound was assayed against Mucolipin-3 (Homo sapiens) (UniProt Q8TDD5) (assay: activators of mucolipin-3 cation channel – cell-based, HEK293 TRPML3-YFP, Fluo-8 calcium fluorescence, 3 µM, primary screen (AID 1448)). Conditions: at 3 µM, active compounds read high, 100% = the carbachol control signal.
How it was run: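 Test system – HEK293 line with stable expression of human TRPML3-YFP channel · Control set – carbachol 87 µM final as high control (100%), DMSO as low control (0%) · Signal – Fluo-8 calcium dye fluorescence, ex 470-495, em 515-575 nm · Incubation – 1-h 37 °C dye load, 5-s basal, 120-s post-compound reads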

SMILES	activation
CCCOc1ccc(NP(C)(=O)Oc2ccc(Cl)cc2)cc1 (stereo not drawn)	inactive: -1.61%
CP(=O)(Nc1ccc(SC(F)(F)F)cc1)Oc1ccccc1 (stereo not drawn)	inactive: 1.22%
CN1CCCCC1COC(=O)C1(O)c2ccccc2CCc2ccccc21 (stereo not drawn)	inactive: 0.77%
COc1ccccc1OP(C)(=O)Nc1c(C)cccc1C (stereo not drawn)	inactive: -0.4%
CCOC(=O)C(CC)C1=NC(C)(C)Cc2ccccc21.O=[N+]([O-])c1cc([N+](=O)[O-])c(O)c([N+](=O)[O-])c1 (stereo not drawn)	inactive: -0.34%
O=[N+]([O-])c1cc([N+](=O)[O-])c(Nc2nnnn2CCO)c([N+](=O)[O-])c1	inactive: 0.25%
Cc1nc2ccc3ccccc3c2s1.O=[N+]([O-])c1cc([N+](=O)[O-])c(O)c([N+](=O)[O-])c1	inactive: -0.03%
O=[N+]([O-])c1cc([N+](=O)[O-])c(-n2nnc3ccccc32)c([N+](=O)[O-])c1	inactive: 0.52%
Cc1ccc(C)c(NP(C)(=O)Oc2ccccc2)c1 (stereo not drawn)	inactive: -0.15%
Cc1cc(C)cc(OP(C)(=O)Nc2ccccn2)c1 (stereo not drawn)	inactive: -0.19%
CP(=O)(Nc1cccc(Br)c1)Oc1ccccc1 (stereo not drawn)	inactive: 0.63%
CCOC(=O)c1ccc(NP(C)(=O)Oc2cc(C)cc(C)c2)cc1 (stereo not drawn)	inactive: -0.19%
Cc1cc(C)cc(OP(C)(=O)Nc2ccc(C)cc2C)c1 (stereo not drawn)	inactive: -0.91%
COc1ccccc1OP(C)(=O)Nc1cccc(Br)c1 (stereo not drawn)	inactive: 0.38%
CC1=NCCc2c1[nH]c1ccccc21.O=[N+]([O-])c1cc([N+](=O)[O-])c(O)c([N+](=O)[O-])c1	inactive: 0.09%
O=C(O)c1cccc(Nc2c([N+](=O)[O-])cc([N+](=O)[O-])cc2[N+](=O)[O-])c1	inactive: 0.36%
Cc1cc(C)cc(OP(C)(N)=O)c1 (stereo not drawn)	inactive: 0.3%
COc1ccc(OP(C)(=O)Nc2cccc(F)c2)cc1 (stereo not drawn)	inactive: 0.21%
COc1ccccc1OP(C)(=O)Nc1cc(Cl)ccc1C (stereo not drawn)	inactive: 0.38%
Cc1ccc(NP(C)(=O)Oc2ccccc2)c(C)c1 (stereo not drawn)	inactive: 0.2%
COc1ccccc1OP(C)(=O)Nc1ccc(C)cc1 (stereo not drawn)	inactive: 0.52%

SMILES	activation
CCOC(=O)c1ccc(NP(C)(=O)Oc2ccccc2)cc1 (stereo not drawn)	inactive: 0.92%
O=[N+]([O-])c1ccc2c(c1)C=Nc1ccccc1O2	inactive: 0.22%
Cc1cccc(C)c1OP(C)(N)=O (stereo not drawn)	inactive: 0.69%
CC(C)(C)c1ccc(OP(C)(=O)Nc2ccc(SC(F)(F)F)cc2)cc1 (stereo not drawn)	inactive: 0.36%
CCN(CC)CCCOC(=O)C(O)(c1ccccc1)c1ccccc1	inactive: -0.25%
CP(=O)(Nc1ccccn1)Oc1ccc(Cl)cc1 (stereo not drawn)	inactive: 0.75%
CCOC(=O)c1ccc(NP(C)(=O)Oc2ccc(OC)cc2)cc1 (stereo not drawn)	inactive: -0.4%
CCOP(C)(=S)SCC(=O)NC(C)C(=O)O (stereo not drawn)	inactive: 0.35%
Cc1cc(C)cc(OP(C)(=O)Nc2ccc(SC(F)(F)F)cc2)c1 (stereo not drawn)	inactive: -0.32%
CP(=O)(NC(=O)Nc1ccccc1)Oc1ccccc1 (stereo not drawn)	inactive: -0.48%
CCc1ccc(OP(C)(=O)N2CCN(c3ccc([N+](=O)[O-])cc3)CC2)cc1 (stereo not drawn)	inactive: 2.01%
CP(=O)(Oc1ccccc1)OC(c1ccccc1)C(F)(F)F (stereo not drawn)	inactive: 0.31%
CP(=O)(Nc1ccc(SC(F)(F)F)cc1)Oc1ccc(Cl)cc1 (stereo not drawn)	inactive: 1.17%
Cc1cccc(C)c1OP(C)(=O)Nc1ccc(SC(F)(F)F)cc1 (stereo not drawn)	inactive: 1.17%
CP(=O)(Nc1ccccc1Br)Oc1ccccc1 (stereo not drawn)	inactive: 0.06%
COc1ccccc1OP(C)(=O)Nc1ccccc1 (stereo not drawn)	inactive: 0.61%
CP(=S)(Nn1cnnc1)Oc1ccccc1 (stereo not drawn)	inactive: 0.62%
CCOC(=O)c1ccc(NP(C)(=O)Oc2ccc(Cl)cc2)cc1 (stereo not drawn)	inactive: -0.47%
CP(=O)(OC12CC3CC(CC(C3)C1)C2)OC12CC3CC(CC(C3)C1)C2	inactive: 0.05%
CN(C)C(=O)c1c([N+](=O)[O-])cc([N+](=O)[O-])cc1[N+](=O)[O-]	inactive: 0.61%
COc1ccccc1OP(C)(=O)Nc1ccccc1Br (stereo not drawn)	inactive: -0.09%

SMILES	activation
CC(C)(C)c1ccc(OP(C)(=O)O)cc1	inactive: 0.45%
CP(=O)(Nc1ccc(Cl)cc1)Oc1ccc(F)cc1 (stereo not drawn)	inactive: 0.43%
O=C(OCCCN1CCCC1)C(O)(c1ccccc1)C1CCCCC1 (stereo not drawn)	inactive: -0.34%
COc1ccccc1OP(C)(=O)Nc1c(C)n(C)n(-c2ccccc2)c1=O (stereo not drawn)	inactive: 0.49%
CCc1ccc(OP(C)(=O)Nc2cccnc2)cc1 (stereo not drawn)	inactive: 0.52%
CP(=O)(Oc1ccccc1)N1CCOC1=O (stereo not drawn)	inactive: 0.6%
COc1ccc(OP(C)(=O)Nc2ccc(Br)cc2)cc1 (stereo not drawn)	inactive: 1.18%
CCN(CC)CC(O)COC(=O)C(O)(c1ccccc1)C1CCCCC1 (stereo not drawn)	inactive: 0.9%
COc1ccccc1OP(C)(=O)Nc1ccc(C)cc1C (stereo not drawn)	inactive: 0.71%
CP(=O)(Nc1ccccn1)Oc1ccccc1 (stereo not drawn)	inactive: 1.01%
CCc1ccc(OP(C)(=O)O)cc1	inactive: 0.27%
Cc1c(NP(C)(=O)Oc2ccc(C(C)C)cc2)c(=O)n(-c2ccccc2)n1C (stereo not drawn)	inactive: -0.24%
O=[N+]([O-])c1cc([N+](=O)[O-])c(Nc2ccccn2)c([N+](=O)[O-])c1	inactive: 1.46%
COc1ccc(OP(C)(=O)Nc2ccccn2)cc1 (stereo not drawn)	inactive: 0.69%
CN(C)CCOC(=O)C(O)(c1ccccc1)C1CCCC1 (stereo not drawn)	inactive: -0.35%
COc1ccccc1OP(C)(=O)Nc1ccc(Br)cc1 (stereo not drawn)	inactive: 0.24%
CP(=O)(Nc1ccc(Cl)cc1Cl)Oc1ccccc1 (stereo not drawn)	inactive: -0.35%
CP(=O)(OCCOc1ccccc1)OCCOc1ccccc1	inactive: 0.89%
Cc1nc2ccc3ccccc3c2o1.O=[N+]([O-])c1cc([N+](=O)[O-])c(O)c([N+](=O)[O-])c1	inactive: 0.48%
COc1ccccc1OP(C)(=O)Nc1ccc(C)c(C)c1 (stereo not drawn)	inactive: 0.68%
COc1ccc(OP(C)(=O)Nc2ccccc2Br)cc1 (stereo not drawn)	inactive: -0.31%

SMILES	activation
Cc1cc(C)cc(OP(C)(=O)Nc2cccc(C(F)(F)F)c2)c1 (stereo not drawn)	inactive: -0.94%
CP(=O)(Nc1ccccc1)Oc1ccc(F)cc1 (stereo not drawn)	inactive: -0.23%
CCCCCOc1ccc(NP(C)(=O)Oc2ccc(Cl)cc2Cl)cc1 (stereo not drawn)	inactive: -0.37%
CCN(CC)CCCOC(=O)C(O)(c1ccccc1)C1CCCCC1 (stereo not drawn)	inactive: 1.22%
CCOC(=O)c1ccc(NP(C)(=O)Oc2ccc(F)cc2)cc1 (stereo not drawn)	inactive: 0.12%
COc1ccc(OP(C)(=O)Nc2ccc(SC(F)(F)F)cc2)cc1 (stereo not drawn)	inactive: 0.93%
O=C(OC1CN2CCC1CC2)c1ccc([N+](=O)[O-])cc1 (stereo not drawn)	inactive: 0.75%
O=C(OCCN1CCN(CCOCc2ccccc2)CC1)C(O)(c1ccccc1)c1ccccc1	inactive: 0.57%
CP(=O)(Nc1ccccc1F)Oc1ccccc1 (stereo not drawn)	inactive: -0.73%
CC(C)c1ccc(OP(C)(=O)Nc2ccc(SC(F)(F)F)cc2)cc1 (stereo not drawn)	inactive: 0.08%
Cc1ccccc1NP(C)(=O)Nc1ccccc1C	inactive: 0.51%
CP(=O)(Nc1ccc2c(c1)OCCO2)Oc1ccccc1 (stereo not drawn)	inactive: 0.71%
CCOP(C)(=S)SCC(=O)NC(C)(CC)C(=O)O (stereo not drawn)	inactive: 0.74%
CP(=O)(Nc1ccc(SC(F)(F)F)cc1)Oc1ccc(F)cc1 (stereo not drawn)	inactive: 1%
O=[N+]([O-])c1ccc(OP2(=O)COCCO2)cc1 (stereo not drawn)	inactive: 0.32%
Cc1cc(-c2cccc3ccccc23)c(C)cn1.O=[N+]([O-])c1cc([N+](=O)[O-])c(O)c([N+](=O)[O-])c1	inactive: -1.77%
O=[N+]([O-])c1cc([N+](=O)[O-])c(NCC2CCS(=O)(=O)C2)c([N+](=O)[O-])c1 (stereo not drawn)	inactive: 0.65%
CN(C)CCOC(=O)C(O)(c1ccccc1)C1CCCCC1 (stereo not drawn)	inactive: -0.5%
COc1ccc(NP(C)(=O)Oc2ccccc2OC)cc1 (stereo not drawn)	inactive: 0.38%
COc1ccc(OP(C)(=O)Nc2cccc(Br)c2)cc1 (stereo not drawn)	inactive: -0.4%
